Pooled drug test results. Numbers come from NIAID ChemDB, via PubChem.

All rows: target-level tests

Blank or dashed fields: not listed here.

compound	species	mutations	strain or isolate	read-out	read by	target	result
CN1CCC[C@H]1C(=O)NC(C)(C)C#Cc1ccc(NC(=O)CSc2nnnn2-c2ccc(C3CC3)cc2Cl)c(Cl)c1	HIV-1	RT-K103 Y181C		IC50	PicoGreen / fluorescence	Reverse transcriptase	<1 µM
CC(=O)Nc1cn2ccn(Cc3cccc(Cl)c3F)c(=O)c2c(O)c1=O	HIV-1			IC50	ELISA	Integrase	0.01–0.1 µM
COc1ccc(S(=O)(=O)NCCCCC(C)(C)CN(C[C@@H](O)[C@H](Cc2ccccc2)NC(=O)O[C@H]2CO[C@H]3OCC[C@H]32)S(=O)(=O)c2ccc3c(c2)OCO3)cc1	HIV-1			Ki	fluorescence	Protease	<0.001 µM
Cc1ccc(Cl)cc1Nc1nc(C(F)(F)F)ccc1C(=O)NN1CCN(c2cccc(Cl)c2)CC1	HIV-1	V108A		fold resistance	RNase H / absorbance	RNase H	>5.5
CC(C)(C)c1ccc(-n2nnnc2SCC(=O)Nc2ccc(NC(=O)Nc3ccc(C(=O)O)cc3)cc2Cl)c(Cl)c1	HIV-1		WT	IC50	PicoGreen / fluorescence	Reverse transcriptase	<1 µM
CC(C)(CCCNC(=S)NC(C)(C)C)CN(C[C@@H](O)[C@H](Cc1ccccc1)NC(=O)O[C@H]1CO[C@H]2OCC[C@H]21)S(=O)(=O)c1ccc2c(c1)OCO2	HIV-1			Ki	fluorescence	Protease	<0.001 µM
CN(C)c1ccc(NC(=O)c2ccc(NC(=O)CSc3nnnn3-c3ccc(C(C)(C)C)cc3Cl)c(Cl)c2)cc1	HIV-1	RT-K103 Y181C		IC50	PicoGreen / fluorescence	Reverse transcriptase	<1 µM
CC(C)(CCNC(=O)CO)CN(C[C@@H](O)[C@H](Cc1ccccc1)NC(=O)O[C@H]1CO[C@H]2OCC[C@H]21)S(=O)(=O)c1ccc2c(c1)OCO2	HIV-1			Ki	fluorescence	Protease	<0.001 µM
Nc1ccn([C@@H]2CS[C@H](COP(=O)(O)OP(=O)(O)OP(=O)(O)O)O2)c(=O)n1	HIV	RT-L74V		fold resistance	radiometric	Reverse transcriptase	1.7
Cc1ccc(-n2nnnc2SCC(=O)Nc2ccc(-c3ccc(CC(N)=O)cc3)cc2Cl)c(Cl)c1	HIV-1		WT	IC50	PicoGreen / fluorescence	Reverse transcriptase	<1 µM
COc1ccc(OC(=O)NCCCC(C)(C)CN(C[C@@H](O)[C@H](Cc2ccccc2)NC(=O)O[C@H]2CO[C@H]3OCC[C@H]32)S(=O)(=O)c2ccc3c(c2)OCO3)cc1	HIV-1			Ki	fluorescence	Protease	<0.001 µM
CC(C)(C#Cc1ccc(NC(=O)CSc2nnnn2-c2cc(C(F)(F)F)ccc2Cl)c(Cl)c1)NC(=O)c1ncccn1	HIV-1	RT-K103 Y181C		IC50	PicoGreen / fluorescence	Reverse transcriptase	<1 µM
CC(C)(CCCCN)CN(C[C@@H](O)[C@H](Cc1ccccc1)NC(=O)O[C@H]1CO[C@H]2OCC[C@H]21)S(=O)(=O)c1cccc(N)c1	HIV-1			Ki	fluorescence	Protease	<0.001 µM
O=C(Nc1cn2ccn(Cc3cccc(Cl)c3)c(=O)c2c(O)c1=O)c1ccco1	HIV-1			IC50	ELISA	Integrase	<0.01 µM
CC(C)(C#Cc1ccc(NC(=O)CSc2nnc(C3CC3)n2-c2ccc(C3CC3)cc2Cl)c(Cl)c1)C(=O)O	HIV-1	RT-K103 Y181C		IC50	PicoGreen / fluorescence	Reverse transcriptase	<1 µM
CC(C)(CCCOC(=O)Oc1ccc([N+](=O)[O-])cc1)CN(C[C@@H](O)[C@H](Cc1ccccc1)NC(=O)O[C@H]1CO[C@H]2OCC[C@H]21)S(=O)(=O)c1ccc2c(c1)OCO2	HIV-1			Ki	fluorescence	Protease	<0.001 µM
Cc1ccc(-n2c(C)cnc2SCC(=O)Nc2ccc(-c3ccc(CC(=O)O)cc3)cc2Cl)c(Cl)c1	HIV-1		WT	IC50	PicoGreen / fluorescence	Reverse transcriptase	<1 µM
NC(=O)c1cc(=O)c(O)c2n1CCN(Cc1ccc(Cl)c(Cl)c1)C2=O	HIV-1			IC50	ELISA	Integrase	0.01–0.1 µM
CC1(C)c2nc(C(=O)NCc3ccc(F)cc3)c(O)c(=O)n2CCN1CC(=O)N1CCOCC1	HIV-1			IC50	ELISA	Integrase	<10 µM
CC(C)(C#Cc1ccc(NC(=O)CSc2nnnn2-c2cc(C(F)(F)F)ccc2Cl)c(Cl)c1)NC(=O)c1cc[n+]([O-])cc1	HIV-1		WT	IC50	PicoGreen / fluorescence	Reverse transcriptase	<1 µM
CN(C)CC1c2nc(C(=O)NCc3ccc(F)cc3)c(O)c(=O)n2CCN1C(=O)C(=O)N(C)C	HIV-1			IC50	ELISA	Integrase	<10 µM
O=c1c(-c2ccncc2)cn2ccn(Cc3cccc(F)c3)c(=O)c2c1O	HIV-1			IC50	ELISA	Integrase	0.01–0.1 µM
CN1CCn2c(nc(C(=O)NCc3ccc(F)cc3)c(O)c2=O)C(N(C)C(=O)C(=O)N(C)C)C1	HIV-1			IC50	ELISA	Integrase	<10 µM
CCS(=O)(=O)NCCCC(C)(C)CN(C[C@@H](O)[C@H](Cc1ccccc1)NC(=O)O[C@H]1CO[C@H]2OCC[C@H]21)S(=O)(=O)c1ccc2c(c1)OCO2	HIV-1			Ki	fluorescence	Protease	<0.001 µM
CCN(C(=O)C(=O)N(C)C)C1CN(C)CCn2c1nc(C(=O)NCc1ccc(F)cc1)c(O)c2=O	HIV-1			IC50	ELISA	Integrase	<10 µM
Nc1nc2c(ncn2[C@H]2CC[C@@H](COP(=O)(O)OP(=O)(O)OP(=O)(O)OP(=O)(O)OC[C@H]3O[C@@H](n4cnc5c(N)ncnc54)[C@H](O)[C@@H]3O)O2)c(=O)[nH]1	HIV	RT-D67N K70R		fold resistance	nucleotide incorporation / radiometric	Reverse transcriptase	0.2
CC(C)(C#Cc1ccc(NC(=O)CSc2nnnn2-c2ccc(C3CC3)cc2Cl)c(Cl)c1)NC(=O)c1ccncc1	HIV-1	RT-K103 Y181C		IC50	PicoGreen / fluorescence	Reverse transcriptase	<1 µM
Nc1ncnc2c1ncn2[C@H]1CC[C@@H](COP(=O)(O)OP(=O)(O)OP(=O)(O)OP(=O)(O)OC[C@@H]2CC[C@H](n3cnc4c(N)ncnc43)O2)O1	HIV	RT-M41L T215Y		fold resistance	nucleotide incorporation / radiometric	Reverse transcriptase	0.45
CCCN=C(NC#N)NCCCCCC(C)(C)CN(C[C@@H](O)[C@H](Cc1ccccc1)NC(=O)O[C@H]1CO[C@H]2OCC[C@H]21)S(=O)(=O)c1ccc2c(c1)OCO2	HIV-1			Ki	fluorescence	Protease	<0.001 µM
O=C(CSc1nnnn1-c1ccc(C2CC2)cc1Cl)Nc1ccc(C#CC2(CNCCN3CCCC3)CC2)cc1Cl	HIV-1	RT-K103 Y181C		IC50	PicoGreen / fluorescence	Reverse transcriptase	<1 µM
CC(C)(CCCOC(=O)N1CCCC1)CN(C[C@@H](O)[C@H](Cc1ccccc1)NC(=O)O[C@H]1CO[C@H]2OCC[C@H]21)S(=O)(=O)c1ccc2c(c1)OCO2	HIV-1			Ki	fluorescence	Protease	<0.001 µM
Nc1nc2c(ncn2[C@H]2CC[C@@H](COP(=O)(O)OP(=O)(O)OP(=O)(O)OP(=O)(O)OC[C@@H]3CC[C@H](n4cnc5c(=O)[nH]c(N)nc54)O3)O2)c(=O)[nH]1	HIV	RT-D67N K70R T215Y K219Q		IC50	nucleotide incorporation / radiometric	Reverse transcriptase	0.2 µM
CC(C)(C)c1ccc(-n2nnnc2SCC(=O)Nc2ccc(NC(=O)c3cccc(O)c3)cc2Cl)c(Cl)c1	HIV-1		WT	IC50	PicoGreen / fluorescence	Reverse transcriptase	<1 µM
CC(C)(CCCCCNC(=O)N1CCCC1)CN(C[C@@H](O)[C@H](Cc1ccccc1)NC(=O)O[C@H]1CO[C@H]2OCC[C@H]21)S(=O)(=O)c1ccc2c(c1)OCO2	HIV-1			Ki	fluorescence	Protease	<0.001 µM
CC(C)(C#Cc1ccc(NC(=O)CSc2nnnn2-c2cc(C3CC3)cc(C(F)(F)F)c2Cl)c(Cl)c1F)NC(=O)c1ccc[n+]([O-])c1	HIV-1	RT-K103 Y181C		IC50	PicoGreen / fluorescence	Reverse transcriptase	<1 µM
CNC(=O)c1cn2c(c(O)c1=O)C(=O)N(Cc1ccc(F)c(F)c1)CC2	HIV-1			IC50	ELISA	Integrase	0.1–1 µM
CCOC(=O)NCC(=O)NCCCC(C)(C)CN(C[C@@H](O)[C@H](Cc1ccccc1)NC(=O)O[C@H]1CO[C@H]2OCC[C@H]21)S(=O)(=O)c1ccc2c(c1)OCO2	HIV-1			Ki	fluorescence	Protease	<0.001 µM
CC(C)(C)c1ccc(-n2nccc2SCC(=O)Nc2ccc(-c3ccc(CC(=O)O)cc3)cc2Cl)c(Cl)c1	HIV-1		WT	IC50	PicoGreen / fluorescence	Reverse transcriptase	<1 µM
CN(C)C(=O)OCCCCC(C)(C)CN(C[C@@H](O)[C@H](Cc1ccccc1)NC(=O)O[C@H]1CO[C@H]2OCC[C@H]21)S(=O)(=O)c1ccc2c(c1)OCO2	HIV-1			Ki	fluorescence	Protease	<0.001 µM
CC(C)(C)c1ccc(-n2nnnc2SCC(=O)Nc2ccc(C(=O)NCc3ccco3)cc2Cl)c(Cl)c1	HIV-1	RT-K103 Y181C		IC50	PicoGreen / fluorescence	Reverse transcriptase	<1 µM
CN(C)S(=O)(=O)N(C)C1COCCn2c1nc(C(=O)NCc1ccc(F)cc1)c(O)c2=O	HIV-1			IC50	ELISA	Integrase	<10 µM
Cc1cn([C@H]2CC[C@@H](COP(=O)(O)OP(=O)(O)OP(=O)(O)O)O2)c(=O)[nH]c1=O	HIV	RT-K65R		fold resistance	nucleotide incorporation / radiometric	Reverse transcriptase	5.55
CC(C)(CCNC(=O)N1CCOCC1)CN(C[C@@H](O)[C@H](Cc1ccccc1)NC(=O)O[C@H]1CO[C@H]2OCC[C@H]21)S(=O)(=O)c1ccc2c(c1)OCO2	HIV-1			Ki	fluorescence	Protease	<0.001 µM
CC1(C)c2nc(C(=O)NCc3ccc(F)cc3)c(O)c(=O)n2CCN1Cc1ccn[nH]1	HIV-1			IC50	ELISA	Integrase	<10 µM
CC(C)C(=O)NCCCCC(C)(C)CN(C[C@@H](O)[C@H](Cc1ccccc1)NC(=O)O[C@H]1CO[C@H]2OCC[C@H]21)S(=O)(=O)c1ccc2c(c1)OCO2	HIV-1			Ki	fluorescence	Protease	<0.001 µM
CC(C)(C)C(=O)c1cn2c(c(O)c1=O)C(=O)N(Cc1ccc(F)cc1)CC2(C)C	HIV-1			IC50	ELISA	Integrase	0.01–0.1 µM
CC(C)OC(=O)NCCCC(C)(C)CN(C[C@@H](O)[C@H](Cc1ccccc1)NC(=O)O[C@H]1CO[C@H]2OCC[C@H]21)S(=O)(=O)c1ccc2c(c1)OCO2	HIV-1			Ki	fluorescence	Protease	<0.001 µM
Cc1nnc(C(=O)N(C)C2CN(C)CCn3c2nc(C(=O)NCc2ccc(F)cc2)c(O)c3=O)o1	HIV-1			IC50	ELISA	Integrase	<10 µM
CC(C)(C)c1ccc(-n2nnnc2SCC(=O)Nc2ccc(-c3ccc(OCC(=O)O)cc3F)cc2Cl)c(Cl)c1	HIV-1	RT-K103 Y181C		IC50	PicoGreen / fluorescence	Reverse transcriptase	<1 µM
COc1ccc(S(=O)(=O)N(C[C@@H](O)[C@H](Cc2ccccc2)NC(=O)O[C@H]2CO[C@H]3OCC[C@H]32)CC(C)(C)CCN)cc1	HIV-1			Ki	fluorescence	Protease	<0.001 µM
Cn1cccc1C(=O)Nc1cn2ccn(Cc3cccc(Cl)c3)c(=O)c2c(O)c1=O	HIV-1			IC50	ELISA	Integrase	<0.01 µM
COC(=O)c1cccc(-c2ccc(NC(=O)CSc3nnnn3-c3ccc(C)cc3Cl)c(Cl)c2)c1	HIV-1	RT-K103 Y181C		IC50	PicoGreen / fluorescence	Reverse transcriptase	<1 µM
C#CCOC(=O)NCCCCCC(C)(C)CN(C[C@@H](O)[C@H](Cc1ccccc1)NC(=O)O[C@H]1CO[C@H]2OCC[C@H]21)S(=O)(=O)c1ccc2c(c1)OCO2	HIV-1			Ki	fluorescence	Protease	<0.001 µM
Cc1nnc(SCC(=O)Nc2ccc(-c3ccc(OCCN4CCCCC4)cc3)cc2Cl)n1-c1ccc(C2CC2)cc1Cl	HIV-1	RT-K103 Y181C		IC50	PicoGreen / fluorescence	Reverse transcriptase	<1 µM
COC(=O)NCCCCC(C)(C)CN(C[C@@H](O)[C@H](Cc1ccccc1)NC(=O)[C@@H](NC(=O)OC)C(C)(C)C)S(=O)(=O)c1ccc2c(c1)OCO2	HIV-1			Ki	fluorescence	Protease	<0.001 µM
CC(C)(C)c1ccc(-n2nnnc2SCC(=O)Nc2ccc(-c3cccc(C(=O)O)c3)cc2Cl)c(Cl)c1	HIV-1		WT	IC50	PicoGreen / fluorescence	Reverse transcriptase	<1 µM
CN(C)S(=O)(=O)N1CCn2c(nc(C(=O)NCc3ccc(F)cc3)c(O)c2=O)C1(C)C	HIV-1			IC50	ELISA	Integrase	<10 µM
Nc1ncnc2c1ccn2[C@H]1C[C@H](F)[C@@H](COP(=O)(O)OP(=O)(O)OP(=O)(O)O)O1	HIV	RT-K65R		fold resistance	nucleotide incorporation / radiometric	Reverse transcriptase	5.36
CC(C)N1CCn2c(nc(C(=O)NCc3ccc(F)cc3)c(O)c2=O)C(N(C)C(=O)C(=O)N(C)C)C1	HIV-1			IC50	ELISA	Integrase	<10 µM
O=c1c(-c2ccn[nH]2)cn2ccn(Cc3cccc(Cl)c3)c(=O)c2c1O	HIV-1			IC50	ELISA	Integrase	0.01–0.1 µM
CC(C)(C)c1ccc(-n2nnnc2SCC(=O)Nc2ccc(-c3ccc(OCC(=O)O)c(Cl)c3)cc2Cl)c(Cl)c1	HIV-1		WT	IC50	PicoGreen / fluorescence	Reverse transcriptase	<1 µM

The first 3 rows once more:

compound,species,mutations,strain or isolate,read-out,read by,target,result
CN1CCC[C@H]1C(=O)NC(C)(C)C#Cc1ccc(NC(=O)CSc2nnnn2-c2ccc(C3CC3)cc2Cl)c(Cl)c1,HIV-1,RT-K103 Y181C,,IC50,PicoGreen / fluorescence,Reverse transcriptase,<1 µM
CC(=O)Nc1cn2ccn(Cc3cccc(Cl)c3F)c(=O)c2c(O)c1=O,HIV-1,,,IC50,ELISA,Integrase,0.01–0.1 µM
COc1ccc(S(=O)(=O)NCCCCC(C)(C)CN(C[C@@H](O)[C@H](Cc2ccccc2)NC(=O)O[C@H]2CO[C@H]3OCC[C@H]32)S(=O)(=O)c2ccc3c(c2)OCO3)cc1,HIV-1,,,Ki,fluorescence,Protease,<0.001 µM

Fold resistance has wild type as its base. ICn: concentration for n% inhibition. Lines come from different laboratories, so protocols vary. a–b is a range or a potency band.